# PubChem BioAssay AID624099, ICCB-Longwood | 2012
# Purpose: 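Host factors E2 relies on to silence an HPV18 LCR reporter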 (primary screen)
# Cells: human C33A cervical carcinoma cells (HPV-negative) stably expressing BPV1 E2 and an HPV18 LCR luciferase reporter
# Reagent: siRNA pool against human genes, 40 nM
# Timing: 72 h
# Read-out: 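HPV18 LCR reporter light per well, converted to plate-wise z-scores that exclude control wells, and averaged over triplicate plates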
# Direction: mean z-score and z-score: higher = stronger reporter signal, weaker E2 silencing
# Active means: 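Mean z ≥ 2 together with z ≥ 2 in two or more of the three replicates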
# Shown is an unselected part of about 21,000 reagents. 497 of them (2.4%) were called active. 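Higher z means weaker E2 silencing; only reporter increases were scored, and knock-downs that hurt cell survival may mask genuine repressor factors.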 Reagents against one gene are numbered here.
target gene,pool no.,mean z-score,"z-score, replicate A","z-score, replicate B","z-score, replicate C",call
MUCL3,1,-0.36,-0.46,-0.37,-0.24,inactive
ZNF484,1,0.51,0.48,0.55,0.51,inactive
FSAF1,1,-1.81,-1.54,-2.08,-1.8,inactive
CREBL2,1,0.01,-0.02,-0.2,0.24,inactive
MED27,1,-2.29,-2.08,-2.4,-2.4,inactive
ABCB7,1,0.43,0.34,0.66,0.31,inactive
MCMDC2,1,0.53,0.46,0.77,0.35,inactive
ZNF540,1,1.39,1.24,1.37,1.55,inactive
MLH3,1,-0.24,-0.18,-0.29,-0.26,inactive
GLS2,1,2.56,2.84,2.75,2.11,active
ACTRT2,1,0.36,0.91,0.14,0.04,inactive
BAX,1,1.23,1.04,1.15,1.5,inactive
SLC41A3,1,0.05,0.07,0.07,0.01,inactive
LOC387631 (retired record),1,0.5,0.38,0.37,0.76,inactive
HSPA14,1,-0.06,-0.38,0.21,-0.02,inactive
RPL3L,1,0.76,0.68,0.76,0.83,inactive
TAS2R7,1,-1.75,-1.98,-1.6,-1.69,inactive
FMR1,1,0.03,0.59,-0.38,-0.13,inactive
ZNF77,1,0.64,0.63,0.97,0.32,inactive
SH2D3C,1,2.41,2.34,2.3,2.58,active
MATR3,1,0.83,0.78,0.94,0.76,inactive
KAZN,1,-0.99,-1.05,-1.09,-0.84,inactive
KAZN,2,0.78,1.15,0.48,0.7,inactive
E2F4,1,0.94,0.8,0.86,1.17,inactive
LINC02817,1,-1.12,-1.38,-0.83,-1.13,inactive
SPSB3,1,-2.74,-2.38,-2.68,-3.14,inactive
FGA,1,-1.34,-1.25,-1.33,-1.44,inactive
MAGED2,1,0.97,1.13,0.94,0.83,inactive
RNASEH2B,1,0.6,1.02,0.61,0.18,inactive
ICA1L,1,-0.09,0.03,-0.28,-0.01,inactive
ICA1L,2,0.68,0.52,0.49,1.04,inactive
UQCRH,1,0.87,1.02,0.65,0.94,inactive
GFRA3,1,-0.63,-0.61,-0.81,-0.47,inactive
LINC00243,1,0.06,0.67,-0.29,-0.19,inactive
CARD6,1,-0.47,-0.44,-0.45,-0.52,inactive
DCLRE1A,1,1.17,1.1,1.25,1.16,inactive
CYBC1,1,-1,-1.28,-1.28,-0.43,inactive
AP2A2,1,1,1.06,0.8,1.13,inactive
PPP1R12C,1,0.48,0.51,0.49,0.44,inactive
FAM222B,1,-0.74,-1.09,-0.59,-0.55,inactive
ACTRT3,1,-1.88,-2.11,-1.73,-1.8,inactive
ESAM,1,-0.51,-0.5,-0.95,-0.09,inactive
RHOBTB3,1,-1.24,-1.33,-1.3,-1.1,inactive
ZBTB9,1,-0.25,-0.31,-0.16,-0.27,inactive
PRORP,1,1.51,1.39,1.49,1.63,inactive
CCDC59,1,-0.89,-0.87,-1,-0.79,inactive
SPAG17,1,-0.4,-0.53,-0.68,0,inactive
ARHGEF7,1,-0.56,-0.63,-0.48,-0.57,inactive
HIPK4,1,0.41,0.86,0.21,0.17,inactive
RRP7BP,1,-0.27,-0.02,-0.64,-0.16,inactive
TAS2R16,1,2.85,2.94,2.76,2.86,active
ITPRIP,1,0.21,0.41,0.01,0.23,inactive
DNAJC24,1,0.66,0.97,0.5,0.5,inactive
STXBP5L,1,0.76,1.13,0.5,0.65,inactive
TP63,1,1.1,1.5,0.69,1.1,inactive
LOC400726 (retired record),1,1.01,1.06,1.15,0.82,inactive
RPS28,1,-1.52,-1.6,-1.72,-1.23,inactive
AGMAT,1,0.43,0.18,0.49,0.64,inactive
PDLIM4,1,0.61,0.86,0.45,0.51,inactive
LOC387720 (retired record),1,-1.76,-1.47,-1.94,-1.86,inactive
LIN28A,1,-0.1,-0.16,-0.07,-0.07,inactive
TMEM200A,1,-1.75,-2.06,-1.76,-1.43,inactive
UGT1A3,1,1.5,1.05,1.78,1.68,inactive
PCDHA1,1,-0.46,-0.42,-0.66,-0.31,inactive
ZDHHC22,1,-3.13,-2.7,-3.41,-3.29,inactive
LOC388340 (retired record),1,0.29,0.37,0.49,0.01,inactive
SELENOT,1,-0.63,-0.62,-0.35,-0.9,inactive
DNAJC7,1,0.2,-0.02,0.44,0.18,inactive
RASSF2,1,-0.21,-0.08,-0.2,-0.35,inactive
DNM1P40,1,-0.21,-0.09,-0.29,-0.24,inactive
EXOC4,1,0.6,0.13,0.55,1.12,inactive
ADGRV1,1,-0.32,-0.15,-0.71,-0.1,inactive
KLHL34,1,-0.25,-0.13,-0.28,-0.34,inactive

Records listed above with an active call (3):
target gene,pool no.,mean z-score,"z-score, replicate A","z-score, replicate B","z-score, replicate C",call
GLS2,1,2.56,2.84,2.75,2.11,active
SH2D3C,1,2.41,2.34,2.3,2.58,active
TAS2R16,1,2.85,2.94,2.76,2.86,active
